For 1 substance, CC50 results are on record in paper PMC6613765 (Journal of Virology, 2019).

This series relates to Vero E6 cells. The conditions noted are these: read-out: MERS-CoV CC50.

As to Monensin sodium, the CC50 was over 20 µM.

The term CC50 denotes the concentration at which the toxic effect on the cells reaches its halfway point.
